## Library screen at single concentrations

From ChEMBL document CHEMBL3988442, “University of Dundee, Small-Polar-MMV Screening Library” (2021).

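Phenotypic screen: M. tuberculosis growth, cholesterol and DPPC medium, 4 days; the read-out is not stated. Tested at 500 µM. Direction is inferred from retests: higher values go with more growth inhibition. Size under these conditions: about 18,000 compounds, about 900 of them at 50% or above in at least one test.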

Each number is a percent effect as filed.
The record does not define 0% and 100%; most values in the screen are far below 50% and negative numbers occur (in some assays of this library far below -100).
The entries come from a sample that favours strong results.

| # | Compound | Percent Effect |
|---|---|---|
| 1 | `CSCc1nc(CNC(=O)c2ccnn2C(C)C)cs1` | 30.87% |
| 2 | `CCNC(=O)CN1CCCC(c2nccn2CC)C1` (centres unmarked) | -7.684% |
| 3 | `c1ccc(NC2CCN(C3CCCC3)C2)nc1` (centres unmarked) | 70.38% |
| 4 | `Cc1nonc1CC(=O)NC(C)c1nc(C2CC2)no1` (centres unmarked) | 14% |
| 5 | `CC1Oc2c(cccc2C(=O)N2CCC2(C)C)NC1=O` (centres unmarked) | -5.882% |
| 6 | `O=C(Nc1ccc(F)cc1F)N(CCO)CCCO` | -1.431% |
| 7 | `CCCNC(=O)c1[nH]cnc1C(=O)NC(C)C` | 12.14% |
| 8 | `CS(=O)(=O)CCN1CCC(Oc2ccc(F)cc2)CC1` | 61.03% |
| 9 | `Cc1ccc(C(N)CN2CCOCC2)cc1` (centres unmarked) | 57.64% |
| 10 | `OC1COC2(CCN(Cc3cc(F)cc(F)c3)CC2)C1` (centres unmarked) | -0.2681% |
| 11 | `COc1ccccc1N1CCCC(N)C1` (centres unmarked) | 5.703% |
| 12 | `NCC(=O)Nc1cc(C(F)(F)F)c[nH]c1=O` | -0.0901% |
| 13 | `CN(C)C(=O)N1CCC(C(=O)N2CCCC2)CC1` | 16.32% |
| 14 | `CCN(CC)CC(=O)Nc1sccc1C(N)=O` | -6.177% |
| 15 | `CC(=O)N1CCC(NC(=O)c2ccc(C#N)cc2)CC1` | 1.753% |
| 16 | `NC1CCN(Cc2ccccc2F)CC1` | 52.31% |
| 17 | `Cc1csc(CN)c1` | 14.81% |
| 18 | `CCCc1cc(=O)[nH]c(C(C)(N)CC)n1` (centres unmarked) | -2.297% |
| 19 | `O=C(Cn1cnnn1)Nc1ccc(SC(F)F)cc1` | 58.47% |
| 20 | `Cc1csc(NC(=O)NC(CO)CC(C)C)n1` (centres unmarked) | 66.9% |
| 21 | `CC1CCN(C(CN)c2cccs2)CC1` (centres unmarked) | 71.01% |
| 22 | `CS(=O)(=O)c1cccc(Cl)c1C#N` | -27.61% |
| 23 | `NC(CO)c1cccc2ccccc12` (centres unmarked) | 30.19% |
| 24 | `CSCC[C@@H](CO)NC(=O)c1cc(C(C)C)nn1C` | 5.693% |
| 25 | `NC(=O)CCN1CCCC1` | -10.9% |
| 26 | `CCN1CCC(NC(=O)c2c(F)cccc2OC)C1` (centres unmarked) | -16.09% |
| 27 | `C=C(Br)Cn1c(CO)nc2ccccc21` | 69.03% |
| 28 | `NCC1(N2CCN(c3ccccc3)CC2)CCOCC1` | 24.42% |
| 29 | `Cc1cc(CN)c(C)n1C` | 14.52% |
| 30 | `O=c1ccc2ccccc2n1CCCn1cnnn1` | 27.02% |
| 31 | `Cc1cccc(NC(=O)C2CCCN(CCC#N)C2)n1` (centres unmarked) | -1.525% |
| 32 | `CC(=O)c1cccc(C(=O)N2C[C@H](C3CC3)[C@@H](N)C2)c1` | -2.264% |
| 33 | `Cc1cncc(-c2cc(NCCO)nc(N)n2)c1` | 2.971% |
| 34 | `Cc1ccn(CC(=O)N(C)CC(F)(F)F)c(=O)c1C#N` | -4.142% |
| 35 | `CNS(=O)(=O)c1ccc(NC2CCC2)cc1OC` | -10.34% |
| 36 | `c1coc(-c2nc(N3CCOCC3)no2)c1` | -14.78% |
| 37 | `CN(Cc1ccncc1)C(=O)CN` | -4.35% |
| 38 | `CCCS(=O)(=O)N(C)Cc1ccc(OCC)cn1` | 69.15% |
| 39 | `CCCC(C#N)NC(=O)c1cnn(C)c1` (centres unmarked) | 2.221% |
| 40 | `CCNC(=O)CNc1nccc(OC)n1` | 0.546% |
| 41 | `Cc1nnc(CN(C)CC2CCN(C)C2(C)C)o1` (centres unmarked) | -14.97% |
| 42 | `Cc1cc(NC(=O)CCN(C)C(C)CO)no1` (centres unmarked) | 8.564% |
| 43 | `CC(C)CCC(=O)N1CCNCC1` | 2.558% |
| 44 | `COCCN(C(=O)Cc1cccc(C)c1)C(C)C(N)=O` (centres unmarked) | 4.316% |
| 45 | `NC(=O)CCc1ccc(Cl)s1` | 61.8% |
| 46 | `CCc1ccc(C(=O)CSc2nnc(N)[nH]2)cc1` | 69.94% |
| 47 | `O=S1(=O)CCCN1c1ccccc1Br` | 9.094% |
| 48 | `Cc1cccc(-n2nnc(C(N)=O)c2N)c1C` | 2.618% |
| 49 | `Cc1cc(C(=O)NCCc2ccccc2F)[nH]n1` | 24.24% |
| 50 | `CN1C[C@@H]2CN(C(=O)CCc3cccnc3)C[C@@H]2C1` | 7.124% |
| 51 | `CCN(CC)C(=O)Nc1c(C)nn(C)c1OC` | -4.313% |
| 52 | `NC(=O)NC1CCCNC1` (centres unmarked) | -2.445% |
| 53 | `Cc1cccc2c(=O)[nH]cnc12` | -5.301% |
| 54 | `CS(=O)(=O)Cc1ccc(NC(=O)N2CCCC2)cc1F` | 4.198% |
| 55 | `CN(Cc1cc(C2CC2)[nH]n1)C(=O)c1c[nH]c(=O)[nH]1` | 0.1549% |
| 56 | `CN(CCOc1ccc(Cl)cc1)CCC(N)=O` | 47.07% |
| 57 | `COCCN1CCC(NC(=O)Nc2ccccc2)C1` (centres unmarked) | -4.043% |
| 58 | `CSc1ccc2c(c1)CCN(C(=O)C1CCNC1)C2` (centres unmarked) | 43.04% |
| 59 | `CCCOC1CCCNCC1` (centres unmarked) | -9.382% |
| 60 | `O=C(CCn1cccn1)N1CCN(c2nccs2)CC1` | 10.26% |
| 61 | `OC(Cn1nnc(-c2ccsc2)n1)CC(F)(F)F` (centres unmarked) | 88.73% |
| 62 | `CC(CNc1cccc(F)c1C#N)S(N)(=O)=O` (centres unmarked) | 5.203% |
| 63 | `COc1cc(CNC(=O)CSc2nccn2C)ccn1` | 4.007% |
| 64 | `COc1cc(N2CCNCC2)cc(OC)c1OC` | 12.07% |
| 65 | `C[C@@H](CO)Nc1ncc(Cl)cc1Br` | 58.35% |
| 66 | `CC(C)Cc1cc(C(=O)NCC2CCCN(C)C2)[nH]n1` (centres unmarked) | 9.064% |
| 67 | `COCCn1ccnc1CN1CCCC(NC(C)=O)C1` (centres unmarked) | 2.936% |
| 68 | `CCc1c[nH]c(S(=O)(=O)Cc2noc(C(C)C)n2)n1` | -10.3% |
| 69 | `O=C(Nc1cccc(F)c1)N1CCCN(CCO)CC1` | 7.31% |
| 70 | `Cc1n[nH]cc1CNCC(C)(C)O` | -1.188% |
| 71 | `Cc1cnc(N2CCC(O)CC2)c(Br)c1` | 59.25% |
| 72 | `CCCN(C)C(=O)c1cc(CN2CCOCC2)on1` | -4.778% |
| 73 | `Cc1cccnc1NCCNC(=O)Cc1ccsc1` | 1.933% |
| 74 | `CCC(C)Oc1cc(C(=O)NCC2(O)CCC2)ccn1` (centres unmarked) | 60.22% |

7 of the entries, repeated:

{"compound": "Cc1nonc1CC(=O)NC(C)c1nc(C2CC2)no1", "stereo": "centres unmarked", "Percent Effect": 14}
{"compound": "CC(=O)c1cccc(C(=O)N2C[C@H](C3CC3)[C@@H](N)C2)c1", "Percent Effect": -2.264}
{"compound": "Cc1cccnc1NCCNC(=O)Cc1ccsc1", "Percent Effect": 1.933}
{"compound": "CC(=O)N1CCC(NC(=O)c2ccc(C#N)cc2)CC1", "Percent Effect": 1.753}
{"compound": "CC(CNc1cccc(F)c1C#N)S(N)(=O)=O", "stereo": "centres unmarked", "Percent Effect": 5.203}
{"compound": "CNS(=O)(=O)c1ccc(NC2CCC2)cc1OC", "Percent Effect": -10.34}
{"compound": "O=c1ccc2ccccc2n1CCCn1cnnn1", "Percent Effect": 27.02}